According to patent US4640910A (Abbott Laboratories, priority 1985, dated 1987):

Assay: Taste test of aqueous suspensions by four tasters
Settings: suspended in water

**Q.** With `CC[C@H]1OC(=O)[C@H](C)[C@@H](O[C@H]2C[C@@](C)(OC)[C@@H](O)[C@H](C)O2)[C@H](C)[C@@H](O[C@@H]2O[C@H](C)C[C@H](N(C)C)[C@H]2O)[C@](C)(OC)C[C@@H](C)C(=O)[C@H](C)[C@@H](O)[C@]1(C)O` [6-O-methyl erythromycin A, reference compound] as the compound, how does the taste read?
**A.** Its taste is “extremely bitter”.
